Biological target: T1, Sterol O-acyltransferase 1 (Rattus norvegicus, UniProt O70536)
T1 sequence (O70536 whole entry): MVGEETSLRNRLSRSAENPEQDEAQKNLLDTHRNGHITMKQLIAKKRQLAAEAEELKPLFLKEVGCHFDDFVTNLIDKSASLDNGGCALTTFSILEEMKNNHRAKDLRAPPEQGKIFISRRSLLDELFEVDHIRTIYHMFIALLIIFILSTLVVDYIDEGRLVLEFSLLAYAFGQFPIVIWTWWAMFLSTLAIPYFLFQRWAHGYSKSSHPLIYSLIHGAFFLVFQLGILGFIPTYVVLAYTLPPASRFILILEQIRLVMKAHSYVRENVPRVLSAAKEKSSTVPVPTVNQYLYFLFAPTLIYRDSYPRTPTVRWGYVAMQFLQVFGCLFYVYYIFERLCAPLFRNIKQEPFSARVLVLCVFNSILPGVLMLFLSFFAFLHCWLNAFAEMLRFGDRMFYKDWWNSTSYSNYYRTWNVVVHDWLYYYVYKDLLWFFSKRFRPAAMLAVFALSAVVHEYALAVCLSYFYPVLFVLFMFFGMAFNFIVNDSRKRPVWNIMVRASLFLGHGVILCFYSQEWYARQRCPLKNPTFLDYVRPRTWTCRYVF
Assay: In vitro inhibition of Acyl coenzyme A:cholesterol acyltransferase in rat hepatic microsomes was measured by using AIV assay
Design: species or system Liver

For Cc1cc(C)n(CCCCCSc2nc(-c3ccccc3)c(-c3ccccc3)[nH]2)n1, the IC50 was 30 nM.
